Results of unrelated studies side by side (data: NIAID ChemDB).

Common to all: target-level tests; species: HIV-1; protein: Integrase; endpoint: IC50

ICn: concentration for n% inhibition.

structure | method | setting | result
N=C(N)c1ccc2cc(C(=O)Nc3cccc(OC4CCCC4)c3)ccc2c1 | strand transfer |  | 24.5 µM
COc1ccc(CN=[N+]=[N-])cc1C(=O)CC(=O)C(=O)O | strand transfer |  | 18–24 µM
COc1cc(O)c2c(=O)c(O[C@@H]3O[C@@H](CO)[C@H](O)[C@H]3O)c(-c3ccc(O)c(O)c3)oc2c1 | 3′ processing |  | 66.07 µM
COc1cc(/C=C/S(=O)(=O)CS(=O)(=O)/C=C/c2cc(OC)c(OC(C)=O)c(OC(C)=O)c2)cc(OC(C)=O)c1OC(C)=O | 3′ processing |  | 30 µM
CN(C)CCCNC(=O)c1cc(NC(=O)c2cc(NC(=O)c3cc(NC(=O)c4ccc(C(=O)Nc5cc(C(=O)Nc6cc(C(=O)Nc7cc(C(=O)NCCCN(C)C)n(C)c7)n(C)c6)n(C)c5)nc4)cn3C)cn2C)cn1C | disintegration |  | 0.68 µM
O=c1oc2ccccc2c(O)c1C(c1ccc(OS(=O)(=O)c2ccc3ccccc3c2)cc1)c1c(O)c2ccccc2oc1=O | 3′ processing |  | 2.1 µM
O=c1oc2ccccc2c(O)c1C(c1ccc(N(CCCl)CCCl)c([N+](=O)[O-])c1)c1c(O)c2ccccc2oc1=O | 3′ processing |  | 8.5 µM
CN1CCN(Cc2ccc3n2C(=O)c2ccccc2SC3c2ccccc2)CC1 | strand transfer |  | >1000 µM
C=C(CC[C@@H](C)[C@H]1CC=C2C3=C([C@@H](O)[C@H](OC(C)=O)[C@@]21C)[C@@]1(C)C[C@@H](O)[C@H](OS(=O)(=O)O)C(C)(C)[C@@H]1CC3)C(C)C | absorbance |  | 4 µM
C=C1[C@H]2C[C@H]2[C@]2(C)Cc3occ(C)c3[C@H](O)[C@@H]12 |  |  | >100 µM
N=C(N)c1ccc2cc(C3C[C@H]3c3ccccc3)ccc2c1 | strand transfer |  | 92 µM
COc1cc(/C=C/S(=O)(=O)CS(=O)(=O)/C=C/c2ccc(OC(C)=O)c(OC)c2)ccc1OC(C)=O | 3′ processing |  | >1000 µM
O=C1O/C(=C(/C(=O)O)c2ccc(O)cc2)C(O)=C1c1ccc(O)c(O)c1 | strand transfer |  | 4.4 µM
O=C1NC(=O)C2(OC(=O)C(=O)/C2=C(\O)c2ccccc2)C(=O)N1 |  |  | >100 µM
O=c1oc2ccccc2c(O)c1C(c1ccc(N(CCCl)CCCl)cc1)c1c(O)c2ccccc2oc1=O | strand transfer |  | 12 µM
O=C1c2ccc(O)c(O)c2C(=O)N1Cc1cccc(CO)c1 | strand transfer |  | 2.1 µM
O=C(Oc1ccc(C(c2c(O)c3ccccc3oc2=O)c2c(O)c3ccccc3oc2=O)cc1)c1ccccc1 | 3′ processing |  | 2.6 µM
CCCCCC(=O)c1c(O)cc2c(c1O)C(=O)c1c(O)cc(O)cc1C2=O | 3′ processing | Mn2+ | 30 µM
O=C1c2c(O)c(=O)n(C3CCC3)c(=O)n2CCN1Cc1ccc(F)cc1 | strand transfer |  | <10 µM
O=C(/C=C(\O)c1ccccn1)c1ccccn1 |  |  | 61.4 µM
O=C1Sc2cc3ccccc3cc2C(=O)N2CSC[C@@H]12 | 3′ processing |  | 65 µM
CCOC(=O)C1Sc2ccccc2C(=O)n2cccc21 | strand transfer |  | >1000 µM
Nc1ccc2nc(N)[nH]c2c1 | strand transfer |  | 170 µM
O=C1c2c(O)c(=O)n(C34CC5CC(CC(O)(C5)C3)C4)c(=O)n2CCN1Cc1ccc(F)cc1 | strand transfer |  | <10 µM
Cn1cc(NC(=O)c2cc(NC(=O)CCCCCCCCCC(=O)Nc3cc(C(=O)Nc4cc(C(=O)NCCC(N)=[NH2+])n(C)c4)n(C)c3)cn2C)cc1C(=O)NCCC(N)=[NH2+] | 3′ processing |  | 64.8 µM
O=C1c2c(ccc(O)c2O)CN1Cc1cccc(Cl)c1 | strand transfer |  | 3.5 µM
O=c1c(O)c(-c2ccc(O)c(O)c2)oc2c(O[C@@H]3O[C@H](CO)[C@@H](O)[C@H](O)[C@H]3O)c(O)cc(O)c12 | 3′ processing |  | 69.18 µM
O=C1Sc2ccc(Cl)cc2C(=O)N2CS(=O)CC12 | 3′ processing |  | 237 µM
N=C(N)c1ccc2cc(C#Cc3ccc4ccccc4c3)ccc2c1 | strand transfer |  | 13 µM
O=C(NCc1ccc(F)cc1)c1nc(N2CCCCS2(=O)=O)c2cccnc2c1O | strand transfer |  | 0.008 µM
O=C(Oc1ccc(C(c2c(O)c3ccccc3oc2=O)c2c(O)c3ccccc3oc2=O)cc1)c1ccc(Cl)cc1 | 3′ processing |  | 2.9 µM
CC(C)=CCC[C@H](C)[C@H]1CC[C@]2(C)C[C@H]3[C@H](C(=O)C[C@@]3(C)O)C(C=O)=C[C@@H]12 | strand transfer |  | 33 µM
O=c1oc2ccccc2c(O)c1C(c1ccc(OS(=O)(=O)c2cccc3ccccc23)cc1)c1c(O)c2ccccc2oc1=O | 3′ processing |  | 1.5 µM
COc1cc(CCO[C@@H]2O[C@H](CO)[C@@H](OC(=O)/C=C/c3ccc(O)c(O)c3)[C@H](O[C@@H]3O[C@@H](C)[C@H](O)[C@@H](O)[C@H]3O)[C@H]2O)ccc1O | 3′ processing |  | 60.9 µM
O=c1[nH]cc(N=Nc2ccc(S(=O)(=O)Nc3nccs3)cc2)cc1O | 3′ processing | Mg2+ | 57 µM
O=c1c(O)c(-c2ccc(O)c(O)c2)oc2cc(O)ccc12 | 3′ processing |  | 28.18 µM
CN(C)CCCNC(=O)c1cc(NC(=O)c2cc(NC(=O)c3cc(NC4C(=O)c5ccccc5C4=O)cn3C)cn2C)cn1C | 3′ processing |  | 33.3 µM
COc1cc(-c2ccc(O)cc2)c(OC)c(O)c1-c1ccc(O)cc1 | absorbance |  | 17.7 µM
CCCCS(=O)(=O)c1ccc(Oc2cc(O)c3c(c2N)C(=O)c2ccccc2C3=O)cc1 | 3′ processing | Mg2+ | >200 µM
C=C(CC[C@@H](C)[C@H]1CC=C2C3=C([C@@H](O)[C@H](OC(C)=O)[C@@]21C)[C@@]1(C)C[C@@H](O)[C@H](O)C(C)(C)[C@@H]1CC3)C(C)C | absorbance |  | 82 µM
O=C1c2ccccc2SCC2CSC(c3ccccc3)N12 | 3′ processing |  | 241 µM
Cn1cc(NC(=O)c2cc(NC(=O)c3cc(NC(=O)CCCCCCCCCCCCCCCCCCCCCCC(=O)Nc4cc(C(=O)Nc5cc(C(=O)Nc6cc(C(=O)NCCC(=N)N)n(C)c6)n(C)c5)n(C)c4)cn3C)cn2C)cc1C(=O)NCCC(=N)N | 3′ processing |  | 12.2 µM
O=C1c2ccc3c(c2-c2c4c(cc5ccnc1c25)OCO4)OCO3 |  |  | 16.3 µM
CC(C)=C[C@H]1C[C@H](C)[C@]2(CC[C@]3(C)C[C@H]4[C@H](C(=O)C[C@@]4(C)O)C(C=O)=C[C@H]32)O1 | absorbance |  | 48 µM
CN(C)CCCNC(=O)c1cc(NC(=O)c2cc(NC(=O)c3cc(NC(=O)c4ccc(C(=O)Nc5cc(C(=O)Nc6cc(C(=O)Nc7cc(C(=O)NCCCN(C)C)n(C)c7)n(C)c6)n(C)c5)cc4)cn3C)cn2C)cn1C | 3′ processing |  | 0.19 µM
O=C1Sc2ccc(Cl)cc2C(=O)N2CCSC12 | strand transfer |  | 90 µM
O=C(Nc1ccc([N+](=O)[O-])cc1)C(=S)NN1C(=O)/C(=C\c2ccc(Cl)cc2)SC1=S | 3′ processing |  | >100 µM
COc1ccc(S(=O)(=O)Oc2ccc(C(c3c(O)c4ccccc4oc3=O)c3c(O)c4ccccc4oc3=O)cc2)cc1 | 3′ processing |  | 1.9 µM
Cc1cc(=O)[nH]c2c(OCOc3cccc4c(C)cc(=O)[nH]c34)cccc12 | 3′ processing | Mn2+ | >200 µM
O=C1c2c(O)c(=O)n(C3CN4CCC3CC4)c(=O)n2CCN1Cc1ccc(F)cc1 | strand transfer |  | <10 µM
O=C(CC1(O)C(=O)Nc2ccc(Br)cc21)c1ccccn1 |  |  | >100 µM
COc1ccc(/C=C/C(=O)OC[C@H]2O[C@@H](OCCc3ccc(O)c(O)c3)[C@H](O)[C@@H](O[C@@H]3O[C@@H](C)[C@H](O)[C@@H](O)[C@H]3O)[C@@H]2O)cc1O | 3′ processing |  | 39.9 µM
CC1=C(C[C@]2(C)C(C=O)=C(C)[C@H]3C[C@H]32)C(=O)OC1=O |  |  | >100 µM
O=C1c2c(O)c(=O)n(CCc3cn4ccccc4n3)c(=O)n2CCN1Cc1ccc(F)cc1 | strand transfer |  | <10 µM
O=C(Oc1ccc(/C=C/S(=O)(=O)CS(=O)(=O)/C=C/c2ccc(OC(=O)c3ccccc3)c(OC(=O)c3ccccc3)c2)cc1OC(=O)c1ccccc1)c1ccccc1 | 3′ processing |  | 700 µM
O=C(NNC1=Nc2ccccc2C(c2ccccc2)=NC1)c1cnccn1 | strand transfer |  | 2–3 µM
CCCCCCCCCc1cc(OC(=O)c2c(CCCCCCCCC)cc(O)cc2O[C@@H]2O[C@H](CO)[C@@H](O)[C@H](O)[C@H]2O)cc(O)c1C(=O)O | strand transfer |  | 68 µM
O=C1c2ccc(O)c(O)c2C(=O)N1Cc1cccc(Cc2cc(F)c(F)c(F)c2)c1 | 3′ processing |  | 9.8 µM
Cn1cc(NC(=O)c2cc(NC(=O)c3cc(NC=O)cn3C)cn2C)cc1C(=O)NCCC(=N)N | 3′ processing |  | 56.9 µM
CC(=O)C(N=Nc1ccc(S(=O)(=O)Nc2ccccn2)cc1)C(=O)Nc1ccccc1C | 3′ processing | Mn2+ | 55 µM
O=c1oc2ccccc2c(O)c1C(c1ccc(C(c2c(O)c3ccccc3oc2=O)c2c(O)c3ccccc3oc2=O)cc1)c1c(O)c2ccccc2oc1=O | 3′ processing |  | 1.1 µM
CN(C)C(=O)C(=O)N1CCOCC1Cn1c(=O)c(O)c2n(c1=O)CCN(Cc1ccc(F)cc1)C2=O | strand transfer |  | <10 µM
CC1=CCCC2=C[C@@H](OC2=O)c2c(C)coc2C1 |  |  | >100 µM
Cc1ccc(C(=O)Oc2ccc(C(c3c(O)c4ccccc4oc3=O)c3c(O)c4ccccc4oc3=O)cc2)cc1 | 3′ processing |  | 0.5 µM
O=C(/C=C/c1ccc(O)c(O)c1)O[C@@H]1CC(O)(C(=O)O)C[C@@H](OC(=O)/C=C/c2ccc(O)c(O)c2)C1O | disintegration |  | 0.66 µg/mL
Cc1ccc(CN2Cc3ccc(O)c(O)c3C2=O)cc1F | 3′ processing |  | 35 µM
N=C(N)c1ccc2cc(C#Cc3ccccc3O)ccc2c1 | strand transfer |  | 300 µM
COc1ccc(C(=O)Oc2ccc(C(c3c(O)c4ccccc4oc3=O)c3c(O)c4ccccc4oc3=O)cc2)cc1 | 3′ processing |  | 3.1 µM

6 of the rows above, restated:

O=C(NNC1=Nc2ccccc2C(c2ccccc2)=NC1)c1cnccn1 ; method: strand transfer ; result: 2–3 µM
O=C(/C=C/c1ccc(O)c(O)c1)O[C@@H]1CC(O)(C(=O)O)C[C@@H](OC(=O)/C=C/c2ccc(O)c(O)c2)C1O ; method: disintegration ; result: 0.66 µg/mL
O=c1oc2ccccc2c(O)c1C(c1ccc(N(CCCl)CCCl)cc1)c1c(O)c2ccccc2oc1=O ; method: strand transfer ; result: 12 µM
O=C1c2c(ccc(O)c2O)CN1Cc1cccc(Cl)c1 ; method: strand transfer ; result: 3.5 µM
O=C1O/C(=C(/C(=O)O)c2ccc(O)cc2)C(O)=C1c1ccc(O)c(O)c1 ; method: strand transfer ; result: 4.4 µM
Cc1ccc(CN2Cc3ccc(O)c(O)c3C2=O)cc1F ; method: 3′ processing ; result: 35 µM

An empty or dashed field is not shown. Lines come from different laboratories, so protocols vary. Two numbers with a dash give a range or band.